Compound potency records, mixed from different reports. Data source: NIAID ChemDB in PubChem.

Shared fields: target-level tests; species: Pneumocystis carinii; protein: Dihydrofolate reductase; read-out: IC50

ICn is the concentration giving n% inhibition.

compound	result
Nc1nc(N)c2c(n1)C1CCC2C1	117 µM
COc1cc(CNCC2CCc3nc(N)nc(N)c3C2)cc(OC)c1OC	8.5 µM
Nc1nc(N)c2c(n1)-c1ccsc1CC2	>352 µM
Nc1nc2[nH]c(CCc3cccc4ccccc34)cc2c(=O)[nH]1	>17 µM
Nc1nc(N)c2cc(COC(=O)c3cc4ccccc4c4ccccc34)ccc2n1	0.49 µM
COc1cccc2c1CCc1cc3c(N)nc(N)nc3nc1-2	8.6 µM
Nc1nc2[nH]c(CCc3ccccc3Cl)cc2c(=O)[nH]1	20 µM
Nc1nc(N)c2cc(COC(=O)c3ccc4ccccc4c3)ccc2n1	0.85 µM
Nc1nc2[nH]c(CCc3ccc4ccccc4c3)cc2c(=O)[nH]1	>17 µM
CC(Cc1c[nH]c2nc(N)nc(N)c12)c1ccccc1	17.1 µM
COc1ccc2c(c1)-c1cc3c(N)nc(N)nc3nc1CC2	0.22 µM
Nc1nc(N)c2cc(COC(=O)c3ccsc3)ccc2n1	4.3 µM
Nc1nc(N)c2c(n1)C1CCC(C2)C1	6.1 µM
COc1ccc2ccc3nc4nc(N)nc(N)c4cc3c2c1	0.7 µM
Nc1nc(N)c2cc(COC(=O)c3ccccc3Cc3ccccc3)ccc2n1	1.4 µM
Nc1nc2[nH]c(CCc3ccccc3)cc2c(=O)[nH]1	>19 µM
CC(Cc1c[nH]c2nc(N)nc(N)c12)c1ccc2ccccc2c1	0.859 µM
Nc1nc(N)c2cc(COC(=O)c3ccoc3)ccc2n1	0.98 µM

For reference, 2 entries again:

compound | result
COc1cc(CNCC2CCc3nc(N)nc(N)c3C2)cc(OC)c1OC | 8.5 µM
Nc1nc(N)c2c(n1)C1CCC2C1 | 117 µM

Conditions beyond the fields shown may differ between rows.